We go through 1 molecule from patent US20090028818A1, “Heterocyclic antiviral compounds” (Roche Palo Alto LLC, priority 2007, published 2009).

By UniProt entry, the sequences of proteins in these tests, tags left out.
UniProt P51681, whole entry: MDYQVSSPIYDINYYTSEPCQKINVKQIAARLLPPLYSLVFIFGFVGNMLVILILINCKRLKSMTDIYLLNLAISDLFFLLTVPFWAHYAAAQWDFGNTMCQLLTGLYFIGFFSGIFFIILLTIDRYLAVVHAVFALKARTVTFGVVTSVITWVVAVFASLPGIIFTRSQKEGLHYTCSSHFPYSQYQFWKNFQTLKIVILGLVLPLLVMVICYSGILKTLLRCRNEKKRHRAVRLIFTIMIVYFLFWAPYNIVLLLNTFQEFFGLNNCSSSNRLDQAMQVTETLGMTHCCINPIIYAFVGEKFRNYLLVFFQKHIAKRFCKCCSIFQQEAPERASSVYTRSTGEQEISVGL

For this test, the target named is Human CCR5 receptor (Homo sapiens, UniProt P51681). Description: Human CCR5 receptor-ligand binding assay. To be noted: read-out: CCR5 Binding IC50; CHO-Gα16-hCCR5 cells, 125I RANTES radioligand. From the text:
Human CCR5 receptor (Genebank ID: 29169292) was cloned into mammalian expression vector, pTarget (Promega). The construct was transfected into CHO-Gα16 cells by using Fugene Reagent (Roche). Clones were selected under antibiotic pressure (G418 and Hygromycin) and sorted 4 times with a fluorescence activates cell sorter and a monoclonal antibody specific for CCR5 receptor (BD Biosciences Pharmigen, Mab 2D7, Cat. No. 555993). The clone with highest expression (100,000 copies per cell) was chosen for the binding assays.
Adherent cells in […] tissue culture flask (˜90% confluent) were harvested using 1 mM EDTA in PBS (phosphate-buffered saline) without Ca^2+ and Mg^2+. Cells were washed twice with PBS containing no Ca^2+ and Mg^2+. […]
After incubation, the cells were harvested onto GF/C filter plates using Packard cell harvester. […] Plates were dried in oven (70° C.) for 20 min, added with 40 μl scintillation fluid and sealed with Packard TopSeal-A. Packard Top Count was used to measure of the radioactivity for 1 min per well.
Total binding was determined with control wells added with radioisotope and buffer and the non-specific binding was determined using an excess cold RANTES to some of the control wells. Specific binding was determined by subtracting the non-specific form total binding. Results are expressed as the percentage of specific ^125I RANTES binding. […]

SMILES strings stand for the structures. The structures given here were assigned with low confidence; some may be wrong.

As a reminder, the IC50 is the concentration that gives 50% inhibition. In the case of `CNC(=O)N1CCC(CN2C[C@@H](c3ccccc3)N(C3CCN(C4(C)CCN(C(=O)c5c(C)ncnc5C)CC4)CC3)C2=O)CC1`, the IC50 worked out at 31.8 nM.
